Data on one compound can be found in ChEMBL document CHEMBL1156508, “Structure/function characterization of micro-conotoxin KIIIA, an analgesic, nearly irreversible blocker of mammalian neuronal sodium channels” (2007).

Series [1] concerns Mus musculus. The series can be described thus: Toxicity against Swiss Webster mouse formalin-induced pain model at 10 nmol, ip assessed as paralytic activity by rotarod test. To be noted: in vivo. A general note: The rotarod test checks motor coordination on a turning rod.
Series [2] concerns Mus musculus. The series can be described thus: Antiinflammatory activity against formalin-induced pain in ip dosed Swiss Webster mouse assessed as reduction of paw licking.
Series [3] relates to Mus musculus. The series can be described thus: Toxicity against Swiss Webster mouse formalin-induced pain model at 3 nmol, ip by rotarod test. As to conditions: in vivo.

`N=C(N)NCCC[C@@H]1NC(=O)[C@H](CO)NC(=O)[C@H](Cc2cnc[nH]2)NC(=O)[C@H](CC(=O)O)NC(=O)[C@H](CCCNC(=N)N)NC(=O)[C@@H]2CSSC[C@H](N)C(=O)N[C@H]3CSSC[C@H](NC1=O)C(=O)N[C@H](C(N)=O)CSSC[C@H](NC(=O)[C@@H](CC(N)=O)NC3=O)C(=O)N[C@@H](CO)C(=O)N[C@@H](CO)C(=O)N[C@@H](CCCCN)C(=O)N[C@@H](Cc1c[nH]c3ccccc13)C(=O)N2`: the Activity result with Mus musculus [1] and with Mus musculus [3] was “Non-toxic” in each case. The ED50 in the series on Mus musculus [2] was determined as 1.6 nmol.
